The list shows a part of the results, in another mix than the full data. Calls of active or inactive are those of the source. No stated cut-off is given here; in the data, active means inhibition above about 10%; inactive means the rest.

A word on the inhibition: it is the drop in the measured response relative to a control, in per cent.

This assay has as its target Toxin B (Clostridioides difficile) (UniProt P18177). Put plainly: TcdB glycohydrolase inhibitors, primary screen, biochemical, single point, plate reader (AID 652162). The settings on record: TcdB glycohydrolase enzymatic assay, at 9.99 µM, hits give high values.
Turning to `O=c1[nH]c2ccccc2n1C1CCN(C(c2cccs2)c2nnnn2C2CCCCC2)CC1` (stereo not drawn), the inhibition is inactive: 1.62%.

Consider `O=c1[nH]c2ccccc2n1C1CCN(C(c2ccnc3ccccc23)c2nnnn2C2CCCC2)CC1` (stereo not drawn), for which the inhibition was inactive: 0.241%.

In the case of `COc1ccc(C(=O)NCC2(N3CCOCC3)CCCCC2)cc1OC`, the inhibition was inactive: 3.38%.

Turning to `COc1cc(C(=O)NCC2(N3CCOCC3)CCCCC2)cc(OC)c1C`, the inhibition is inactive: -0.077%.

Take `CCCCn1nnnc1C(c1ccccc1)N1CCC(n2c(=O)[nH]c3ccccc32)CC1` (stereo not drawn): the inhibition is inactive: 0.606%.

Turning to `O=C(NCC1(N2CCOCC2)CCCCC1)c1cc(Br)ccc1Cl`, the inhibition is inactive: 0.661%.

For the compound `CC(C)(C)n1nnnc1C(c1cccc2ccccc12)N1CCC(n2c(=O)[nH]c3ccccc32)CC1` (stereo not drawn), the inhibition was inactive: 0.988%.

For `CN(C)C1(CNC(=O)c2cccc(C#N)c2)CCCCC1`, the inhibition is inactive: 0.492%.

For the compound `Cc1cc(N(CCCl)CCCl)ccc1C=O`, the inhibition was inactive: 1.63%.

As to `O=c1[nH]c2ccccc2n1C1CCN(C(c2ccccc2)c2nnnn2C2CCCC2)CC1` (stereo not drawn), the inhibition was inactive: 0.995%.

As for `CCCN1CCC(Nc2cc(OC)cc(OC)c2)CC1`, the inhibition was inactive: -8.05%.

Turning to `C/C(N)=N\P(=O)(Oc1ccccc1)Oc1ccccc1`, the inhibition was inactive: 1.4%.

For the compound `N#Cc1ccc(C(=O)NCC2(N3CCCCC3)CCCCC2)cc1`, the inhibition is inactive: -0.159%.

Turning to `CC(C)(C)OC(=O)N1CCC(N(C(=O)c2ccccc2)c2ccc(Cl)cc2)CC1`, the inhibition was inactive: 0.611%.

Turning to `CN(C)c1ccc(C(=O)NCC2(N3CCCCC3)CCCCC2)cc1`, the inhibition is inactive: 0.942%.

With `Cn1c(=O)[nH]cc(N(CCCl)CCCl)c1=O`, the inhibition is inactive: -2.82%.

Regarding `O=C(NCC1(N2CCCCC2)CCCCC1)c1ccco1`, the inhibition is inactive: 1.13%.

Regarding `COc1ccc(C(c2nnnn2C2CCCCC2)N2CCC(n3c(=O)[nH]c4ccccc43)CC2)cc1` (stereo not drawn), the inhibition was inactive: 0.545%.

As to `CC(C)(C)n1nnnc1C(c1ccnc2ccccc12)N1CCC(n2c(=O)[nH]c3ccccc32)CC1` (stereo not drawn), the inhibition was inactive: 0.814%.

On to `Cc1ccccc1NC1(C#N)CCN(Cc2ccccc2)CC1`, for which the inhibition was inactive: 1.04%.

As for `Fc1ccccc1NC1CCN(Cc2ccccc2)CC1`, the inhibition was inactive: 0.672%.

Consider `Cc1ccc(C(=O)NCC2(N3CCCCC3)CCCCC2)o1`, for which the inhibition was inactive: 0.509%.

For `Cc1ccc(NC2(C#N)CCN(Cc3ccccc3)CC2)cc1`, the inhibition was inactive: -3.68%.

Take `CCC(c1nnnn1C1CCCCC1)N1CCC(n2c(=O)[nH]c3ccccc32)CC1` (stereo not drawn): the inhibition was inactive: -5.48%.

Consider `COc1cccc(C(c2nnnn2C2CCCCC2)N2CCC(n3c(=O)[nH]c4ccccc43)CC2)c1OC` (stereo not drawn), for which the inhibition is inactive: 0.586%.

Regarding `CC(=O)N(c1ccccc1)C1CCNCC1`, the inhibition is inactive: 0.043%.

Regarding `COc1cc(OC)cc(C(=O)NCC2(N3CCCCC3)CCCCC2)c1`, the inhibition is inactive: 0.386%.

Consider `O=c1[nH]c2ccccc2n1C1CCN(C(c2ccnc3ccccc23)c2nnnn2C2CCCCC2)CC1` (stereo not drawn), for which the inhibition is inactive: -6.51%.

Take `CN1CCC(Nc2ccc(Cl)cc2)CC1`: the inhibition is inactive: 0.216%.

For the compound `COc1cccc(C(=O)N(c2cc(C)cc(C)c2)C2CCN(C(=O)OC(C)(C)C)CC2)c1`, the inhibition is inactive: 0.107%.

On to `COc1cc(OC)cc(C(=O)NCC2(N3CCOCC3)CCCCC2)c1`, for which the inhibition was inactive: 0.917%.

`COc1cccc(C(c2nnnn2C2CCCC2)N2CCC(n3c(=O)[nH]c4ccccc43)CC2)c1OC` (stereo not drawn): the inhibition was inactive: 0.644%.

For `NN(c1ccccc1)C1CCN(CCc2ccccc2)CC1`, the inhibition is inactive: 0.546%.

As for `O=C(O)C1(Nc2ccccc2)CCN(Cc2ccccc2)CC1`, the inhibition is inactive: -1.64%.

As to `CC(C)(C)OC(=O)N1CCC(Nc2ccccc2)CC1`, the inhibition was inactive: 2.66%.

`O=c1[nH]c2ccccc2n1C1CCN(C(c2cc3ccccc3o2)c2nnnn2C2CCCC2)CC1` (stereo not drawn): the inhibition was inactive: -0.117%.

`CCCOc1ccc(C(=O)NCC2(N(C)C)CCCCC2)cc1`: the inhibition was inactive: 0.538%.

As for `CN1CCC(Nc2ccc(F)c(Cl)c2)CC1`, the inhibition is inactive: 1.96%.

For the origin of these results see PubChem BioAssay AID652162 (Broad Institute, 2013).
